Results of unrelated studies side by side (data: NIAID ChemDB).

All rows: tests in culture; organism: Varicella zoster virus; endpoint: EC50

ECn is the concentration giving n% inhibition of infection, replication or growth.

CC1(C)[C@@H](CO)CC[C@@]1(C)Cn1nnc2c(=O)[nH]cnc21 ; read by: cytopathic effect ; cell line: HEL ; strain: 07/1 (TK-) ; result: >50 µg/mL
CCCOc1nc(N)nc2c1ncn2/C=C1/C[C@@H]1CO ; read by: cytopathic effect ; cell line: HFF ; result: 0.5 µM
Nc1nc2c(ncn2[C@@H]2C[C@H](CO)[C@H]2CO)c(=O)[nH]1 ; read by: plaque count ; cell line: WI-38 ; strain: ELLEN ; result: 0.2 µM
Cc1cn(CC[C@H](O)CCO)c(=O)[nH]c1=O ; read by: cytopathic effect ; cell line: HEL ; strain: YS ; result: >400 µg/mL
CCCCCOc1nc(N)nc2c1ncn2/C=C1/C[C@@H]1CO ; read by: cytopathic effect ; cell line: HFF ; result: >65.9 µM
CCCCCCCOCCc1cc2cn([C@H]3C[C@H](O)[C@@H](CO)O3)c(=O)nc2o1 ; read by: plaque count ; cell line: HEL ; strain: YS/R (TK-) ; result: >50 µM
Nc1nc(=O)n([C@H]2C[C@H](O)[C@@H](CO)O2)cc1/C=C/Cl ; read by: plaque count ; cell line: HEL ; strain: 7/01 (TK-) ; result: >40 µg/mL
CCCSc1nc(N)nc2c1ncn2/C=C1/C[C@@H]1CO ; read by: cytopathic effect ; cell line: HFF ; result: >69 µM
Nc1ccn(C[C@@H](CO)OCP(=O)(O)O)c(=O)n1 ; read by: plaque count ; cell line: HEL ; strain: YS/R (TK-) ; result: 0.25 µg/mL
CC1(C)[C@@H](CO)CC[C@@]1(C)Cn1cc(Br)c(=O)[nH]c1=O ; read by: cytopathic effect ; cell line: HEL ; strain: 07/1 (TK-) ; result: >50 µg/mL
O=c1[nH]cnc2c1ncn2[C@@H]1O[C@H](CO)[C@H]1CO ; read by: plaque count ; cell line: HEL ; strain: TK+/YS ; result: 89 µg/mL
O=c1[nH]c(=O)n([C@@H]2O[C@H](CO)[C@@H](O)[C@@H]2O)cc1/C=C/Br ; read by: cytopathic effect ; cell line: HEL ; strain: Oka CF1368-resistant ; result: ≥35.5 µM
CC(C)(C)[Si](C)(C)OC[C@H]1O[C@@H](n2ccc(=O)[nH]c2=O)[C@H](O[Si](C)(C)C(C)(C)C)C1(O)C(Cl)C(N)=O ; read by: plaque count ; cell line: MRC-5 ; result: >5 µM
Nc1nc2c(ncn2C[C@]2(CO)C[C@H]2CO)c(=O)[nH]1 ; read by: plaque count ; cell line: HEL ; strain: Kawaguchi ; result: 0.027 µg/mL
COc1ccc(-c2cc3cn([C@H]4C[C@H](O)[C@@H](CO)O4)c(=O)nc3o2)cc1 ; read by: plaque count ; cell line: HEL ; strain: YS ; result: 0.045 µM
Nc1nc2c(ncn2CC(CO)CCO)c(=O)[nH]1 ; read by: plaque count ; cell line: HL ; result: 4.2 µM
CC1(C)[C@@H](CO)CC[C@@]1(C)Cn1ccc(=O)[nH]c1=O ; read by: cytopathic effect ; cell line: HEL ; strain: YS/R (TK-) ; result: >50 µg/mL
O=c1[nH]c(=O)n(C[C@]2(CO)C[C@H]2CO)cc1/C=C/Br ; read by: plaque count ; cell line: MRC-5 ; strain: 6 isolates ; result: 0.21 µg/mL
CC1(C)[C@@H](CCO)C[C@H]1n1nnc2c(=O)[nH]cnc21 ; read by: plaque count ; cell line: HEL ; strain: (TK-)/YS/R ; result: >20 µg/mL
Nc1nc2c(ncn2CCOCP(=O)(O)O)c(=O)[nH]1 ; read by: plaque count ; cell line: HEL ; strain: YS (TK+) ; result: 0.001 µg/mL
Nc1nc(NCC2CC2)c2ncn(/C=C3/C[C@@H]3CO)c2n1 ; read by: cytopathic effect ; cell line: HFF ; result: 10 µM
CC(C)(C)[Si](C)(C)OC[C@H]1O[C@@H](n2ccc(=O)[nH]c2=O)[C@H](O[Si](C)(C)C(C)(C)C)[C@@]12O[C@H]2C(=O)NO ; read by: plaque count ; cell line: MRC-5 ; result: 13 µM
CO[C@H](CO)[C@@H](O)CCn1cc(C)c(=O)[nH]c1=O ; read by: cytopathic effect ; cell line: HEL ; strain: YS ; result: >400 µg/mL
Cc1cn([C@@H]2O[C@H](CO[Si](C)(C)C(C)(C)C)C3(O[C@H]3C(=O)NN)[C@H]2O[Si](C)(C)C(C)(C)C)c(=O)[nH]c1=O ; read by: plaque count ; cell line: MRC-5 ; result: 3.9 µM
Nc1nc(OCC2CC2)c2ncn(/C=C3/C[C@@H]3CO)c2n1 ; read by: cytopathic effect ; cell line: HFF ; result: 0.5 µM
C=Cc1cn([C@@H]2O[C@H](CO)[C@@H](O)[C@@H]2O)c(=O)[nH]c1=O ; read by: plaque count ; strain: Kawaguchi acyclovir-resistant mutant A7 ; result: 0.0625 µg/mL
CC1(C)[C@@H](CCO)C[C@H]1n1cnc2c(=O)[nH]cnc21 ; read by: plaque count ; cell line: HEL ; strain: (TK-)/YS/R ; result: >50 µg/mL
CC(C)(C)[Si](C)(C)OC[C@H]1O[C@@H](n2ccc(=O)[nH]c2=O)[C@H](O[Si](C)(C)C(C)(C)C)[C@@]12O[C@H]2C(N)=O ; read by: plaque count ; cell line: MRC-5 ; result: >8 µM
CCCCCOc1ccc(-c2cc3cn([C@H]4C[C@H](O)[C@@H](CO)O4)c(=O)nc3o2)cc1 ; read by: plaque count ; cell line: HEL ; strain: 07/1 (TK-) ; result: 3.2 µM
CCCSc1nc(N)nc2c1ncn2/C=C1/C[C@@H]1CO ; read by: cytopathic effect ; cell line: HFF ; result: >69 µM
CCCC(=O)OCC(COC(=O)CCC)OCn1cnc2c(=O)[nH]c(N)nc21 ; read by: plaque count ; cell line: HFF ; result: 1.1 µg/mL
Nc1nc2c(ncn2CCC(CO)CO)c(=O)[nH]1 ; read by: cytopathic effect ; cell line: HEL ; strain: Clinical isolate VZV-22 ; result: 6.44 µM
O=c1[nH]c(=O)n([C@H]2C[C@H](O)[C@@H](CO)O2)cc1/C=C/Br ; read by: cytopathic effect ; cell line: HEL ; strain: YS ; result: 0.006 µg/mL
Nc1nc2c(ncn2CC(CO)OCP(=O)(O)O)c(=O)[nH]1 ; read by: plaque count ; cell line: HEL ; strain: YS/R (TK-) ; result: 0.07 µg/mL
CC1(C)[C@@H](CCO)C[C@H]1n1nnc2c(N)nc(N)nc21 ; read by: plaque count ; cell line: HEL ; strain: (TK-)/YS/R ; result: >20 µg/mL
Nc1nc2ncn(CCOCP(=O)(O)O)c2c(=O)[nH]1 ; read by: plaque count ; cell line: HEL ; strain: 07/1 (TK-) ; result: 0.15 µg/mL
CCCC(=O)OCC(CO)OCn1cnc2c(=O)[nH]c(N)nc21 ; read by: plaque count ; cell line: HFF ; result: 0.2 µg/mL
CC1(C)[C@H](CCO)C[C@@H]1n1nnc2c(N)ncnc21 ; read by: plaque count ; strain: YS/R (TK-) ; result: 3.5 µg/mL
Nc1ncnc2c1ncn2C[C@H](O)CO ; read by: cytopathic effect ; cell line: HEL ; strain: YS ; result: 10 µg/mL
Nc1nc2c(ncn2COCCO)c(=O)[nH]1 ; read by: plaque count ; strain: OKA (TK+) ; result: 0.24 µg/mL
CCCOCCOCCCc1cc2cn([C@H]3C[C@H](O)[C@@H](CO)O3)c(=O)nc2o1 ; read by: plaque count ; cell line: HEL ; strain: 07/1 (TK-) ; result: >200 µM
O=C(NCc1ccc(Cl)cc1)c1c[nH]c2c(F)cccc2c1=O ; read by: plaque count ; strain: COH ; result: 2.3 µM
O=C(O)CP(=O)(O)O ; read by: plaque count ; strain: Kawaguchi ; result: 4.5 µg/mL
CC1(C)[C@H](CCO)C[C@@H]1n1cnc2c(=O)[nH]cnc21 ; read by: plaque count ; strain: YS/R (TK-) ; result: >50 µg/mL
C#CCNc1nc(N)nc2c1ncn2/C=C1/C[C@@H]1CO ; read by: cytopathic effect ; cell line: HFF ; result: >74 µM
Nc1ncnc2c1ncn2[C@@H]1O[C@H](CO)[C@H]1CO ; read by: plaque count ; cell line: HEL ; strain: (TK-)/YS/R ; result: 46 µg/mL
Nc1ncnc2c1ncn2C[C@@H](CO)OCP(=O)(O)O ; read by: cytopathic effect ; cell line: HEL ; strain: Oka CF1743-resistant ; result: 0.018 µM
Nc1nc(OCC2CC2)c2ncn(/C=C3/C[C@@H]3CO)c2n1 ; read by: cytopathic effect ; cell line: HFF ; result: 0.5 µM
CC1(C)[C@@H](CCO)C[C@H]1n1nnc2c(=O)[nH]c(N)nc21 ; read by: plaque count ; cell line: HEL ; strain: (TK-)/YS/R ; result: >50 µg/mL
NC1=NC2C(C=CN2CC(CO)CCO)C(=O)N1 ; read by: plaque count ; cell line: MRC-5 ; strain: MOLLY ; result: 0.62 µM
CO[C@H](CO)[C@@H](O)CCn1cnc2c(N)ncnc21 ; read by: cytopathic effect ; cell line: HEL ; strain: OKA ; result: >400 µg/mL
CCCCCOc1nc(N)nc2c1ncn2/C=C1/C[C@@H]1CO ; read by: cytopathic effect ; cell line: HFF ; result: >66 µM
CC(C)(C)[Si](C)(C)OC[C@H]1O[C@@H](n2ccc(=O)[nH]c2=O)[C@H](O[Si](C)(C)C(C)(C)C)C1(O)[C@H](N=[N+]=[N-])C(N)=O ; read by: plaque count ; cell line: MRC-5 ; result: >5 µM
CC1(C)[C@@H](CO)CC[C@@]1(C)Cn1cc(I)c(=O)[nH]c1=O ; read by: cytopathic effect ; cell line: HEL ; strain: OKA ; result: >50 µg/mL
CCCOc1ccc(-c2cc3cn([C@H]4C[C@H](O)[C@@H](CO)O4)c(=O)nc3o2)cc1 ; read by: plaque count ; cell line: HEL ; strain: YS ; result: 0.0025 µM
Nc1ccn(CC[C@H](O)CCO)c(=O)n1 ; read by: cytopathic effect ; cell line: HEL ; strain: OKA ; result: >400 µg/mL
O=C(O)P(=O)(O)O ; read by: cytopathic effect ; cell line: HEL ; strain: Oka BVaraU-resistant ; result: 42 µM
CCCCCCOCCCc1cc2cn([C@H]3C[C@H](O)[C@@H](CO)O3)c(=O)nc2o1 ; read by: plaque count ; cell line: HEL ; strain: YS/R (TK-) ; result: >50 µM
Nc1nc2c(ncn2COCCO)c(=O)[nH]1 ; read by: plaque count ; cell line: HEL ; strain: TK+/YS ; result: 0.33 µg/mL
COc1nc(=O)n([C@H]2C[C@H](O)[C@@H](CO)O2)cc1/C=C/Cl ; read by: plaque count ; cell line: HEL ; strain: 7/01 (TK-) ; result: >40 µg/mL
Nc1ccn(C[C@@H](CO)OCP(=O)(O)O)c(=O)n1 ; read by: cytopathic effect ; cell line: HEL ; strain: Oka BVDU-resistant ; result: 0.17 µM
Nc1nc2c(ncn2COCCO)c(=O)[nH]1 ; read by: plaque count ; cell line: HFF ; result: 0.24 µg/mL
CCCCCc1ccc(-c2cc3cn(C4C[C@H](F)[C@@H](CO)O4)c(=O)nc3o2)cc1 ; strain: YS ; result: >2 µM

A second listing of 8 rows from above:

Nc1nc2c(ncn2COCCO)c(=O)[nH]1 ; read by: plaque count ; strain: OKA (TK+) ; result: 0.24 µg/mL
CCCC(=O)OCC(CO)OCn1cnc2c(=O)[nH]c(N)nc21 ; read by: plaque count ; cell line: HFF ; result: 0.2 µg/mL
CC1(C)[C@@H](CCO)C[C@H]1n1nnc2c(N)nc(N)nc21 ; read by: plaque count ; cell line: HEL ; strain: (TK-)/YS/R ; result: >20 µg/mL
Cc1cn([C@@H]2O[C@H](CO[Si](C)(C)C(C)(C)C)C3(O[C@H]3C(=O)NN)[C@H]2O[Si](C)(C)C(C)(C)C)c(=O)[nH]c1=O ; read by: plaque count ; cell line: MRC-5 ; result: 3.9 µM
CC1(C)[C@H](CCO)C[C@@H]1n1nnc2c(N)ncnc21 ; read by: plaque count ; strain: YS/R (TK-) ; result: 3.5 µg/mL
Nc1ccn(CC[C@H](O)CCO)c(=O)n1 ; read by: cytopathic effect ; cell line: HEL ; strain: OKA ; result: >400 µg/mL
CC1(C)[C@@H](CCO)C[C@H]1n1nnc2c(=O)[nH]c(N)nc21 ; read by: plaque count ; cell line: HEL ; strain: (TK-)/YS/R ; result: >50 µg/mL
CO[C@H](CO)[C@@H](O)CCn1cc(C)c(=O)[nH]c1=O ; read by: cytopathic effect ; cell line: HEL ; strain: YS ; result: >400 µg/mL

Neighbouring rows are from separate reports.